Anti-infective test results gathered from many reports (values: NIAID ChemDB through PubChem).

Shared fields: tests in culture; organism: Mycobacterium avium complex; measure: MIC50

Rows are shuffled and stem from different studies.

structure | strain or isolate | result
COC1CCN(c2c(F)cc3c(=O)c(C(=O)O)cn(C4CC4)c3c2F)C1 | 14 strains | 1 µg/mL
CCCCOP(=O)(OCCCC)OCCCC | 32 isolates | >128 µg/mL
C[C@@H]1CN(c2c(F)c(N)c3c(=O)c(C(=O)O)cn(C4CC4)c3c2F)C[C@H](C)N1 |  | 2–8 µg/mL
CCC1CN(c2nc3c(cc2F)c(=O)c(C(=O)O)cn3-c2ccc(F)cc2F)CCN1 | 14 strains | ≥32 µg/mL
CN1CCN(CCCN2c3ccccc3Sc3ccc(C(F)(F)F)cc32)CC1 | 32 isolates | 8 µg/mL
CC(=O)NC[C@H]1CN(c2ccc(N3CCOCC3)c(F)c2)C(=O)O1 | 13 isolates | 32 µg/mL
CC1CN(c2c(F)cc3c(=O)c(C(=O)O)cn(C4CC4)c3c2F)C(C)CN1 | 14 strains | 2 µg/mL
CCC1CN(c2c(F)cc3c(=O)c(C(=O)O)cn(C4CC4)c3c2Cl)CCN1 | 14 strains | 2 µg/mL
CO[C@H]1/C=C/O[C@@]2(C)Oc3c(C)c(O)c4c(O)c(c5c(c4c3C2=O)NC2(CCN(CC(C)C)CC2)N=5)=NC(=O)/C(C)=C\C=C\[C@H](C)[C@H](O)[C@@H](C)[C@@H](O)[C@@H](C)[C@H](OC(C)=O)[C@@H]1C | 20 strains | 0.4 µg/mL
COc1c(N2CCNC(C)C2)c(F)cc2c(=O)c(C(=O)O)cn(C3CC3)c12 |  | 2–8 µg/mL
CCn1cc(C(=O)O)c(=O)c2cc(F)c(N3CCNCC3)cc21 |  | 12.6 µg/mL
CNC1CCN(c2c(F)cc3c(=O)c(C(=O)O)cn(C4CC4)c3c2F)C1 | 14 strains | 2 µg/mL
CC1CN(c2c(F)cc3c(=O)c(C(=O)O)cn(C4CC4)c3c2Br)CC(C)N1 | 14 strains | 0.5 µg/mL
COc1c(N2CCNC(C)C2)c(F)cc2c(=O)c(C(=O)O)cn(C3CC3)c12 | 16 isolates | 1.56 µg/mL
CC(C)N=c1cc2n(-c3ccc(Cl)cc3)c3ccccc3nc-2cc1Nc1ccc(Cl)cc1 | 32 isolates | 1 µg/mL
COC(C(N)=NC1C(=O)N2C(C(=O)[O-])=C(C[N+]3(C)C=CC=C3)CSC12)c1cnc(N)s1 |  | 17.2 µg/mL
NC1[C@H]2CN(c3nc4c(cc3F)c(=O)c(C(=O)O)cn4-c3ccc(F)cc3F)C[C@@H]12 | 22 strains | >256 µg/mL
CN(C)CC1CCN(c2c(F)cc3c(=O)c(C(=O)O)cn(C4CC4)c3c2F)C1 | 14 strains | 0.5 µg/mL
CC1CN(c2nc3c(cc2F)c(=O)c(C(=O)O)cn3C2CC2)CC1N |  | 8.8 µg/mL
NC1CCN(c2nc3c(cc2F)c(=O)c(C(=O)O)cn3-c2ccc(F)cc2F)C1 | 16 isolates | >100 µg/mL
CC(C)(N)C1CCN(c2c(F)cc3c(=O)c(C(=O)O)cn(C4CC4)c3c2F)C1 | 14 strains | 4 µg/mL
NC1CCN(c2nc3c(cc2F)c(=O)c(C(=O)O)cn3-c2ccc(F)cc2F)C1 | 14 strains | ≥32 µg/mL
CC[C@H]1OC(=O)[C@H](C)[C@@H](O[C@H]2C[C@@](C)(OC)[C@@H](O)[C@H](C)O2)[C@H](C)[C@@H](O[C@@H]2O[C@H](C)C[C@H](N(C)C)[C@H]2O)[C@](C)(O)C[C@@H](C)CN(C)[C@H](C)[C@@H](O)[C@]1(C)O | 20 strains | 32 µg/mL
Nc1nc(-n2cc(C(=O)O)c(=O)c3cc(F)c(N4CC(O)C4)c(Cl)c32)c(F)cc1F | 20 strains | 3.13 µg/mL
Cc1cc2nc3c(=O)[nH]c(=O)nc-3n(C[C@H](O)[C@H](O)[C@H](O)CO)c2cc1C | 32 isolates | 64 µg/mL
CC1COc2c(C3(N)CC3)c(F)cc3c(=O)c(C(=O)O)cn1c23 | 16 isolates | 50 µg/mL
CO/N=C(/C(=O)N[C@@H]1C(=O)N2C(C(=O)O)=C(COC(N)=O)CS[C@H]12)c1ccco1 |  | 17.3 µg/mL
CCn1cc(C(=O)O)c(=O)c2cc(F)c(N3CCNCC3)cc21 | 63 isolates | 16 µg/mL
O=C(O)c1cn(C2CC2)c2c(F)c(N3CCS(=O)CC3)c(F)cc2c1=O | 14 strains | 1 µg/mL
CC(C)N=c1cc2n(-c3ccc(Cl)cc3)c3ccccc3nc-2cc1Nc1ccc(Cl)cc1 | 20 strains | <0.125 µg/mL
c1ccc(N=Nc2ccccc2)cc1 | 32 isolates | 128 µg/mL
C[C@H]1COc2c(N3CCN(C)CC3)c(F)cc3c(=O)c(C(=O)O)cn1c23 |  | 8–32 µg/mL
CO[C@H]1/C=C/O[C@@]2(C)Oc3c(C)c(O)c4c(=O)c(c5oc6cc(N7CCN(CC(C)C)CC7)cc(=O)c6nc5c4c3=C2O)NC(=O)/C(C)=C\C=C\[C@H](C)[C@H](O)[C@@H](C)[C@@H](O)[C@@H](C)[C@H](OC(C)=O)[C@@H]1C | 20 strains | 0.1 µg/mL
CO[C@H]1/C=C/O[C@@]2(C)Oc3c(C)c(O)c4c(O)c(c(/C=N/N5CCN(C)CC5)c(O)c4c3C2=O)NC(=O)/C(C)=C\C=C\[C@H](C)[C@H](O)[C@@H](C)[C@@H](O)[C@@H](C)[C@H](OC(C)=O)[C@@H]1C | 20 strains | 8 µg/mL

A second listing of 2 rows from above:

structure	strain or isolate	result
CCCCOP(=O)(OCCCC)OCCCC	32 isolates	>128 µg/mL
CCC1CN(c2c(F)cc3c(=O)c(C(=O)O)cn(C4CC4)c3c2Cl)CCN1	14 strains	2 µg/mL

MIC50, MIC90 and the like: level of inhibition, or share of isolates inhibited. Two numbers with a dash give a range or band. An empty or dashed field is not shown.